Measured values from several laboratories, pooled; numbers as filed in NIAID ChemDB.

Common to all: whole-cell or culture tests; species: Candida albicans

ECn is the concentration giving n% inhibition of infection, replication or growth. Conditions beyond the fields shown may differ between rows. Blank or dashed fields: not listed here. MIC50, MIC90 and the like: level of inhibition, or share of isolates inhibited.

compound	measure	setting	read by	strain	value
N=C(N)c1ccc(OC/C=C/COc2ccc(C(=N)N)cc2)cc1	MIC	-	-	B311	6.25 µg/mL
COc1cccc(C=[NH+]CC(=O)[N-]CC(=O)[O-])c1[O-].O.O.O.[K+]	EC50	-	-	-	<200 µg/mL
CN1C(C(=O)Nc2nccs2)=C(O)c2ccccc2S1(=O)=O	MIC	-	-	1760	1000 µg/mL
CCCn1c(-c2ccc(C(N)=NC(C)C)cc2)nc2cc(C(=O)OCC)ccc21	MIC	-	-	ATCC 10231	50 µg/mL
C(=C\COc1ccc(C2=NCCN2)cc1)/COc1ccc(C2=NCCN2)cc1	MIC	-	-	B311	6.25 µg/mL
Clc1ccccc1C(c1ccccc1)(c1ccccc1)n1ccnc1	MFC	-	-	ATCC 10231	20 µg/mL
O=C(Cc1ccc([N+](=O)[O-])cc1)Nc1ccc2oc(-c3ccc(F)cc3)nc2c1	MIC	-	-	RSKK 628	12.5 µg/mL
CC(=O)N1CCN(c2ccc(OC[C@H]3CO[C@](Cn4ccnc4)(c4ccc(Cl)cc4Cl)O3)cc2)CC1	MFC	-	-	ATCC 10231	20 µg/mL
C[C@H]1[C@H](O)[C@@H](C)/C=C/C=C/C=C/C=C/C=C/C=C/C=C/[C@H](O[C@@H]2O[C@H](C)[C@@H](O)[C@H](N)[C@@H]2O)C[C@@H]2O[C@](O)(C[C@@H](O)C[C@@H](O)CC[C@H](O)[C@@H](O)C[C@@H](O)CC(=O)O[C@H]1C)C[C@H](O)[C@H]2C(=O)O	Geometric mean MIC	-	-	55 strains (fluconazole-susceptible)	<0.09 µg/mL
CC(C)Cc1ccc(CC2=Cc3[nH][nH]c(=O)c3C(c3ccc(Cl)cc3)C2)cc1	MIC	-	agar diffusion	-	25 µg/mL
CCOC(=O)c1ccc2c(c1)nc(-c1ccc(C(N)=NCc3ccc(Cl)c(Cl)c3)cc1)n2Cc1ccc(Cl)cc1Cl	MIC	-	-	ATCC 10231	6.25 µg/mL
O=C(Cc1ccccc1)Nc1ccc2oc(-c3ccc(F)cc3)nc2c1	MIC	-	-	RSKK 628	12.5 µg/mL
CC(C)Cc1ccc(CC2=Cc3[nH][nH]c(=O)c3C(c3ccc(Br)cc3)C2)cc1	MIC	-	agar diffusion	-	25 µg/mL
N=C(N)c1ccc2nc(CCCc3nc4ccc(C(=N)N)cc4[nH]3)[nH]c2c1	MFC	-	-	A39	>100 µg/mL
C[C@H]1[C@H](O)[C@@H](C)/C=C/C=C/C=C/C=C/C=C/C=C/C=C/[C@H](O[C@@H]2O[C@H](C)[C@@H](O)[C@H](N)[C@@H]2O)C[C@@H]2O[C@](O)(C[C@@H](O)C[C@@H](O)CC[C@H](O)[C@@H](O)C[C@@H](O)CC(=O)O[C@H]1C)C[C@H](O)[C@H]2C(=O)O	MIC50	-	-	ATCC 10231	5 µg/mL
Clc1ccccc1COc1ccc(C(c2ccc(-c3ccccc3)cc2)n2ccnc2)cc1.O=[N+]([O-])O	Mean MIC	-	-	16 strains	≥256 µg/mL
O=C(c1ccc([N+](=O)[O-])cc1)n1c(-c2ccc(Cl)cc2)nc2ccccc21	MIC	-	-	-	4 µg/mL
COc1cc(O)c2c(c1)C(=O)c1c(cc3c(c1O)-c1c(cc(C)c(C(=O)N[C@H](CO)C(=O)O)c1O)[C@H](OC1OC(C)C(N)C(OC4OCC(O)C(O)C4O)C1O)[C@H]3O)C2=O	MIC	-	-	A9540	6.3 µg/mL
CCC(C)n1ncn(-c2ccc(N3CCN(c4ccc(OC[C@H]5CO[C@](Cn6cncn6)(c6ccc(Cl)cc6Cl)O5)cc4)CC3)cc2)c1=O	Geometric mean MIC	-	-	55 strains (fluconazole-susceptible)	0.02 µg/mL
O=C(Nc1ccc2oc(-c3ccccc3)nc2c1)SCc1ccccc1	MIC	-	-	RSKK 628	50 µg/mL
C=CCn1c(-c2ccc(N=Nc3c(C)[nH]n(CCO)c3=O)cc2)n[nH]c1=S	MIC	-	-	ATCC 2091	125 µg/mL
CCOC(=O)c1c(N)oc2c1cc(O)c1sc(C)nc12	MIC	-	broth dilution	KCCM 50235	100 µg/mL
Cc1ccc(-c2cnc(Nc3cnc(OCCCN4CCN(C)CC4)nc3)c(C(N)=O)n2)c(C)c1	MIC	-	resazurin	-	>32 µg/mL
COc1ccccc1-c1nc2ccccc2n1C(=O)c1ccc([N+](=O)[O-])cc1	MIC	-	-	-	8 µg/mL
Cc1nc2c(s1)C(=O)C(Nc1ccc(Br)cc1)=C(Cl)C2=O	MIC	-	broth dilution	KCCM 50235	3.2 µg/mL
C[n+]1c2c(Cl)cccc2cc2sc3ccccc3c21	EC50	-	resazurin	ATCC 90028	>20 µg/mL
O=C(Nc1ccc2oc(-c3ccccc3)nc2c1)OCc1ccccc1	MIC	-	-	RSKK 628	50 µg/mL
CC(C)Cc1ccc(CC2=Cc3[nH][nH]c(=O)c3C(c3ccc(F)cc3)C2)cc1	MIC	-	agar diffusion	-	12.5 µg/mL
CCC(C)CC(C)CCCCCCCCC(=O)N[C@H]1C[C@@H](O)[C@H](NCCN)NC(=O)[C@@H]2[C@@H](O)CCN2C(=O)[C@H]([C@H](O)CCN)NC(=O)[C@H]([C@H](O)[C@@H](O)c2ccc(O)cc2)NC(=O)[C@@H]2C[C@@H](O)CN2C(=O)[C@H]([C@@H](C)O)NC1=O	MIC90	-	-	40 isolates	0.5 µg/mL
Cc1nc2c(s1)C(=O)C(Nc1ccc(C)c(C)c1)=C(Cl)C2=O	MIC	-	broth dilution	KCCM 50235	3.2 µg/mL
O=C(Nc1ccc2oc(-c3ccccc3)nc2c1)OCc1ccc(Cl)cc1	MIC	-	-	RSKK 628	25 µg/mL
N=C(N)c1ccc2nc(-c3cccc(-c4nc5ccc(C(=N)N)cc5[nH]4)n3)[nH]c2c1	MIC80	-	-	A39	>100 µg/mL
CCOC(=O)c1ccc2nc(-c3ccc(C(N)=NC(C)C)cc3)[nH]c2c1	MIC	-	-	ATCC 10231	50 µg/mL
Cc1ccc(-c2cnc(Nc3cnc(OCCCN4CCN(C)CC4)nc3)c(C(N)=O)n2)c(F)c1	MIC	-	resazurin	-	>32 µg/mL
Clc1ccc(COc2ccc(C(c3ccc(-c4ccccc4)cc3)n3ccnc3)cc2)c(Cl)c1.O=[N+]([O-])O	Mean MIC	-	-	17 strains	≥256 µg/mL
C[C@@H](c1ncncc1F)[C@](O)(Cn1cncn1)c1ccc(F)cc1F	MIC50	24 h	-	Isolate HR-Micro	0.02 µg/mL
CC(C)N=C(N)c1ccc2nc(-c3ccc4c(c3)Cc3cc(-c5nc6ccc(C(N)=NC(C)C)cc6[nH]5)ccc3-4)[nH]c2c1	MFC	-	-	Isolate 1 (strain 2-76)	1.56 µg/mL
O=c1[nH][nH]c2c1C(c1ccc(Br)cc1)CC(Cc1ccc3ccccc3c1)=C2	MIC	-	agar diffusion	-	25 µg/mL
O=C(c1ccccc1Br)n1c(-c2ccccc2[N+](=O)[O-])nc2ccccc21	MIC	-	-	-	15 µg/mL
Cc1nc2c(s1)C(=O)C(Nc1cccc(F)c1)=C(Cl)C2=O	MIC	-	broth dilution	KCCM 50235	12.5 µg/mL
N=C(N)c1ccc2nc(CCCCc3nc4ccc(C(=N)N)cc4[nH]3)[nH]c2c1	MIC80	-	-	A39	>100 µg/mL
C[C@H]1[C@H](O)[C@@H](C)/C=C/C=C/C=C/C=C/C=C/C=C/C=C/[C@H](O[C@@H]2O[C@H](C)[C@@H](O)[C@H](N)[C@@H]2O)C[C@@H]2O[C@](O)(C[C@@H](O)C[C@@H](O)CC[C@H](O)[C@@H](O)C[C@@H](O)CC(=O)O[C@H]1C)C[C@H](O)[C@H]2C(=O)O	MIC50	-	-	52 strains	1 µg/mL
CCCCCCCCCCCCCC[C@@H]1CCCN1C	MIC	-	-	IP4872	25 µg/mL
CCc1ccc(-c2nc3cc(NC(=O)OCc4ccc(Cl)cc4)ccc3o2)cc1	MIC	-	-	RSKK 628	25 µg/mL
COc1cc(O)c2c(c1)C(=O)c1c(cc3c(c1O)-c1c(cc(C)c(C(=O)NC(CO)C(=O)O)c1O)[C@H](OC1OC(C)C(N(C)C)C(OC4OCC(O)C(O)C4O)C1O)[C@H]3O)C2=O	MIC	-	-	ATCC 38247 (amphotericin B-resistant)	0.8 µg/mL
C[C@H]1[C@H](O)[C@@H](C)/C=C/C=C/C=C/C=C/C=C/C=C/C=C/[C@H](O[C@@H]2O[C@H](C)[C@@H](O)[C@H](N)[C@@H]2O)C[C@@H]2O[C@](O)(C[C@@H](O)C[C@@H](O)CC[C@H](O)[C@@H](O)C[C@@H](O)CC(=O)O[C@H]1C)C[C@H](O)[C@H]2C(=O)O	MIC	-	broth dilution	-	2.07 µg/mL
Clc1cccc(Cl)c1COc1ccc(C(c2ccc(-c3ccccc3)cc2)n2ccnc2)cc1.O=[N+]([O-])O	MIC90	-	-	17 strains	≥256 µg/mL
CCN(NC(=O)Cc1nc2cc(C(=O)OC)ccc2n1Cc1ccc(Cl)cc1)C(C)C	MIC	-	-	ATCC 10231	>50 µg/mL
Oc1ccc(C(c2nccc3ccccc23)n2ccnc2)cc1	Mean MIC	-	-	44 strains	>256 µg/mL
O=C(Nc1ccc2oc(-c3ccc(F)cc3)nc2c1)OCc1ccccc1	MIC	-	-	RSKK 628	25 µg/mL
CCOC(=O)c1ccc2c(c1)nc(-c1ccc(C(N)=NCc3ccc(Cl)cc3)cc1)n2Cc1ccccc1	MIC	-	-	ATCC 10231	12.5 µg/mL
Cc1[nH][nH]c(=O)c1N=Nc1ccc(-c2n[nH]c(=O)n2-c2ccccc2)cc1	MIC	-	-	ATCC 2091	62.5 µg/mL
CCCN=C(NCCC)c1ccc(-c2nc3cc(C(=O)OCC)ccc3n2CCC)cc1	MIC	-	-	ATCC 10231	50 µg/mL
C=CCn1c(-c2ccc(N=Nc3c(C)[nH]n(-c4ccccc4)c3=O)cc2)n[nH]c1=S	MIC	-	-	ATCC 2091	62.5 µg/mL
N=C(N)c1ccc(OCCCCCOc2ccc(/C(N)=N\O)cc2)cc1	MIC80	-	-	A39	>100 µg/mL
O=C([O-])c1cccc(C(=O)[O-])n1.c1cnc2c(c1)ccc1ccc[nH+]c12.c1cnc2c(c1)ccc1ccc[nH+]c12	MIC	-	-	ATCC 10231	200 µg/mL
Cc1[nH]n(CCO)c(=O)c1N=Nc1ccc(-c2n[nH]c(=S)n2-c2ccccc2)cc1	MIC	-	-	ATCC 2091	62.5 µg/mL
C[n+]1c2cccc(Cl)c2cc2sc3ccccc3c21	MIC	-	resazurin	ATCC 90028	>20 µg/mL
O=C(c1ccc([N+](=O)[O-])cc1)n1c(-c2cccc(Cl)c2)nc2ccccc21	MIC	-	-	-	17 µg/mL
CCn1c(-c2ccc(N=Nc3c(C)[nH][nH]c3=O)cc2)n[nH]c1=S	MIC	-	-	ATCC 2091	125 µg/mL
O=C(c1ccc([N+](=O)[O-])cc1)n1c(-c2cccc([N+](=O)[O-])c2)nc2ccccc21	MIC	-	-	-	18 µg/mL
O=C(CCc1ccccc1)Nc1ccc2oc(-c3ccc(F)cc3)nc2c1	MIC	-	-	RSKK 628	12.5 µg/mL
O=C(c1ccccc1Br)n1c(-c2ccc([N+](=O)[O-])cc2)nc2ccccc21	MIC	-	-	-	7 µg/mL
Nc1[nH]c(=O)ncc1F	MIC	-	broth dilution	-	3.2 µg/mL
O=C(O)c1ccccc1-c1nc2ccccc2n1C(=O)c1ccccc1Br	MIC	-	-	-	30 µg/mL
CN(C)c1ccc(-c2nc3cc(NC(=O)OCc4ccc(Cl)cc4)ccc3o2)cc1	MIC	-	-	RSKK 628	12.5 µg/mL
Cc1[nH]n(CCO)c(=O)c1N=Nc1ccc(-c2n[nH]c(=S)o2)cc1	MIC	-	-	ATCC 2091	62.5 µg/mL

For reference, 6 entries again:

compound | measure | setting | read by | strain | value
COc1cc(O)c2c(c1)C(=O)c1c(cc3c(c1O)-c1c(cc(C)c(C(=O)NC(CO)C(=O)O)c1O)[C@H](OC1OC(C)C(N(C)C)C(OC4OCC(O)C(O)C4O)C1O)[C@H]3O)C2=O | MIC | - | - | ATCC 38247 (amphotericin B-resistant) | 0.8 µg/mL
CCOC(=O)c1c(N)oc2c1cc(O)c1sc(C)nc12 | MIC | - | broth dilution | KCCM 50235 | 100 µg/mL
Cc1ccc(-c2cnc(Nc3cnc(OCCCN4CCN(C)CC4)nc3)c(C(N)=O)n2)c(C)c1 | MIC | - | resazurin | - | >32 µg/mL
COc1cc(O)c2c(c1)C(=O)c1c(cc3c(c1O)-c1c(cc(C)c(C(=O)N[C@H](CO)C(=O)O)c1O)[C@H](OC1OC(C)C(N)C(OC4OCC(O)C(O)C4O)C1O)[C@H]3O)C2=O | MIC | - | - | A9540 | 6.3 µg/mL
O=C(CCc1ccccc1)Nc1ccc2oc(-c3ccc(F)cc3)nc2c1 | MIC | - | - | RSKK 628 | 12.5 µg/mL
O=C(Nc1ccc2oc(-c3ccccc3)nc2c1)OCc1ccc(Cl)cc1 | MIC | - | - | RSKK 628 | 25 µg/mL